Each substance was assayed on NC(=O)c1ccc[n+]([C@@H]2O[C@H](COP(=O)(O)O)[C@@H](O)[C@H]2O)c1 (assay: purified protein). Conditions: 50 mM sodium phosphate pH 7.5, 37 °C.
With “AtCinA (NMN deamidase) (Agrobacterium fabrum str. C58; C32A)” the Km was 28 ± 3 µM, the kcat was 7.3 s⁻¹ and the kcat/Km was 260000 M⁻¹ s⁻¹. Work on “AtCinA (NMN deamidase) (Agrobacterium fabrum str. C58; S48A)” yielded a Km of 51 ± 3 µM, a kcat of 8.7 s⁻¹ and a kcat/Km of 171000 M⁻¹ s⁻¹. With “AtCinA (NMN deamidase) (Agrobacterium fabrum str. C58; T105A)” the Km was 158 ± 14 µM, the kcat was 3.5 s⁻¹ and the kcat/Km was 22100 M⁻¹ s⁻¹. Substance “AtCinA (NMN deamidase) (Agrobacterium fabrum str. C58; Y58F)” has a Km of 1930 ± 50 µM, a kcat of 1.5 s⁻¹ and a kcat/Km of 800 M⁻¹ s⁻¹.
